Compound potency records, mixed from different reports. Data source: NIAID ChemDB in PubChem.

Shared fields: whole-cell or culture tests

An empty or dashed field is not shown. ECn is the concentration giving n% inhibition of infection, replication or growth. a–b is a range or a potency band. A number after MIC or MFC names an inhibition level or a share of isolates. Neighbouring rows are from separate reports. Inhibition is in % at the dose shown (toxicity tests: loss of growth or viability).

smiles | strain or isolate | method | tested at | species | cell line | read-out | result
O=C(NCc1ccccc1-c1ncccc1F)c1c2n(c(=O)n1-c1ccc(OC3CC3)cc1)CCN(C(=O)c1ccc(Br)c(Cl)c1)C2 | - | PCR | - | Hepatitis B virus | HepG2.2.15 | EC50 | 0.1–0.5 µM
O=c1[nH]c(=O)n([C@H]2C[C@H](O)[C@@H](CO)O2)cc1I | Asahikawa | plaque count | 0.1 µg/mL | Varicella zoster virus | HELF | inhibition | 6%
O=C(Nc1cc(S(=O)(=O)O)cc2cc(S(=O)(=O)O)cc(O)c12)c1ccccc1 | TYPE 3 | cytopathic effect | 50 µg/mL | Adenovirus | Human amnion AV3 cells | inhibition | 0%
CN[C@H]1CC[C@@H](c2ccc(Cl)c(Cl)c2)c2ccccc21 | UM4 | broth dilution | - | Cryptococcus neoformans | - | MIC90 | 4 µg/mL
CNC(=O)c1cnc(-n2c(=O)c3c(n4ncc(CC(C)C)c24)CN(C(=O)c2ccc(Br)c(C(F)(F)F)c2)[C@H](C)C3)cn1 | - | luminescence | - | Hepatitis B virus | HepG2.117 | EC50 | ≤0.05 µM
O=S(=O)([O-])c1ccc2c(O)cc(S(=O)(=O)[O-])cc2c1 | - | cytopathic effect | 50 µg/mL | Herpes simplex virus | Human amnion AV3 cells | inhibition | 0%
C/C=C\[C@@H]1C[C@H](C(=O)O)N[C@H]1[C@@H](NC(C)=O)[C@](C)(CCC)OC | H1N1 isolate C23D | plaque count | - | Influenza A virus | MDCK | EC50 | 0.01 µg/mL
C/C=C/C/C=C/CCC(=O)[C@H]1O[C@H]1C(N)=O | UB1005/PSJ13 | - | - | Escherichia coli | - | MIC | 20 µg/mL
Cc1cc(-c2ccc(N=Nc3ccc4c(S(=O)(=O)O)cc(S(=O)(=O)O)c(N)c4c3O)c(C)c2)ccc1N=Nc1ccc2c(S(=O)(=O)O)cc(S(=O)(=O)O)c(N)c2c1O | TYPE 3 | cytopathic effect | 10 µg/mL | Adenovirus | Human amnion AV3 cells | inhibition | 0%
C[C@@H]1Cc2c(n3ncc(Cc4ccccc4)c3n(-c3ccc(-c4nncn4C)cc3)c2=O)CN1C(=O)c1ccc(Br)c(C(F)(F)F)c1 | - | luminescence | - | Hepatitis B virus | HepG2.117 | EC50 | ≤0.05 µM
CC(C)(O)c1cn(-c2ccc3ccccc3c2)nn1 | URM 933 | broth dilution | 2048 µg/mL | Candida tropicalis | - | inhibition | 0%
NC(=O)COc1ccc(CNC(=O)c2c3n(c(=O)n2-c2ccc(OCC(F)(F)F)cc2)CCN(C(=O)c2ccc(Br)c(Cl)c2)C3)c(-n2cccn2)c1 | - | PCR | - | Hepatitis B virus | HepG2.117 | EC50 | 0.5–5 µM
Nc1ncnc2c1ncn2[C@@H]1CC[C@@H](O)[C@H]1O | SA | cytopathic effect | - | Measles virus | CV-1 | EC50 | >100 µg/mL
O=S(=O)([O-])c1ccc2c(NS(=O)(=O)c3ccccc3)cc(S(=O)(=O)[O-])cc2c1 | - | cytopathic effect | 50 µg/mL | Rhinovirus | Human amnion AV3 cells | inhibition | 15%
C=Cc1cn([C@@H]2O[C@H](CO)[C@@H](O)[C@@H]2O)c(=O)[nH]c1=O | Ohtomo | plaque count | 0.01 µg/mL | Varicella zoster virus | HELF | inhibition | 74%
CC(C)(O)c1cn(-c2ccc(Cl)cc2)nn1 | URM 4818 | broth dilution | - | Candida parapsilosis | - | MIC | 128 µg/mL
COc1ccc(CN2C[C@@H](O)Cn3c(c4n(c3=O)CCN(C(=O)c3ccc(Br)c(Cl)c3)C4)C2=O)c(F)c1 | - | PCR | - | Hepatitis B virus | HepG2.117 | EC50 | 0.1–0.5 µM
Oc1ccc(O)c(C=Nc2ccccc2O)c1 | 547/OTTI-97-PI-10 | - | - | Cryptococcus gattii | - | MIC99 | 8 µg/mL
CCC(CC)[C@H](NC(C)=O)[C@@H]1C[C@@H](C(=O)O)C[C@H]1N=C(N)N | Panama/45/90 | - | - | Influenza B virus | MDCK | EC50 | 2.8 µM
O=S(=O)([O-])c1ccc2c(S(=O)(=O)[O-])cc(S(=O)(=O)[O-])cc2c1 | - | cytopathic effect | 5 µg/mL | Herpes simplex virus | Human amnion AV3 cells | inhibition | 0%
O=c1[nH]c(=O)n([C@H]2C[C@H](O)[C@@H](CO)O2)cc1/C=C/Br | KANNO | plaque count | 0.1 µg/mL | Varicella zoster virus | HELF | inhibition | 100%
Oc1ccccc1N=Cc1ccc(O)c(O)c1O | LMM 820 | - | - | Cryptococcus neoformans | - | MIC99 | 11.3 µg/mL
O=S(=O)([O-])c1ccc(O)c2ccccc12 | - | cytopathic effect | 5 µg/mL | Rhinovirus | Human amnion AV3 cells | inhibition | 10%
CCC(CC)O[C@@H]1C=C(C(=O)O)C[C@H](N)[C@H]1NC(C)=O | H1N1 A/NWS/33 | visual reading | - | Influenza A virus | MDCK | EC50 | 57 µM
CC(C)(O)c1cn(-c2cccc3ccccc23)nn1 | URM 4804 | broth dilution | 2048 µg/mL | Candida parapsilosis | - | inhibition | 0%
Cc1cn([C@@H]2O[C@H](CO)[C@@H](O)[C@@H]2O)c(=O)[nH]c1=O | YS | plaque count | 0.01 µg/mL | Varicella zoster virus | HELF | inhibition | 0%
CCCC(CCC)C(NC(C)=O)C1CC(C(=O)O)CC1N=C(N)N | HONG KONG/5/72 | - | - | Influenza B virus | MDCK | EC50 | 1.8 µM
Nc1ccc2cc(S(=O)(=O)O)cc(S(=O)(=O)O)c2c1 | - | cytopathic effect | 50 µg/mL | Rhinovirus | Human amnion AV3 cells | inhibition | 10%
CC(C)Cc1cnn2c3c(c(=O)n(-c4ccc(-c5n[nH]c(=O)n5C)cc4)c12)C[C@H](C)N(C(=O)c1ccc(Br)c(C(F)(F)F)c1)C3 | - | luminescence | - | Hepatitis B virus | HepG2.117 | EC50 | 0.05–0.5 µM
CO[C@H]1/C=C/O[C@@]2(C)Oc3c(C)c(O)c4c(O)c(c(/C=N/N5CCN(C6CCCC6)CC5)c(O)c4c3C2=O)NC(=O)/C(C)=C\C=C\[C@H](C)[C@H](O)[C@@H](C)[C@@H](O)[C@@H](C)[C@H](OC(C)=O)[C@@H]1C | 15-Feb | - | - | Mycobacterium avium intracellulare | - | MIC | 0.5 µg/mL
CCC(CC)[C@H](NC(C)=O)[C@@H]1[C@H](O)[C@@H](C(=O)O)C[C@H]1N=C(N)N | H3N2 A/X-31 | - | - | Influenza A virus | MDCK | EC50 | 0.01 µM
Nc1ncnc2c1ncn2[C@@H]1C[C@H](N)[C@@H](O)[C@H]1O | BIL | neutral red | - | Measles virus | CV-1 | EC50 | 100 µg/mL
C=CCc1ccc(OC)c(OC)c1 | 3253 | turbidity | - | Candida albicans | - | MIC90 | 340 µg/mL
Oc1ccccc1C=Nc1ccccc1O | 196L/03 | - | - | Cryptococcus gattii | - | MIC99 | 11.3 µg/mL
CC(C)[C@H](N)C(=O)OCNC(=O)c1ccc(-n2c(=O)c3c(n4ncc(CC5CC5)c24)CN(C(=O)c2ccc(Br)c(C(F)(F)F)c2)C(C)C3)cc1 | - | luminescence | - | Hepatitis B virus | HepG2.117 | EC50 | ≤0.05 µM
COc1ccc(CNC(=O)C2C3CN(C(=O)c4ccc(Br)c(Cl)c4)CCN3CN2c2ccc(C#N)cc2)c(F)c1 | - | PCR | - | Hepatitis B virus | HepG2.117 | EC50 | 0.5–5 µM
Cn1cc(C(=O)NCc2ccc(Cl)cc2)c(=O)c2cc(CN3CCOCC3)ccc21 | SL varicella isolate | plaque count | 3.4 µM | Varicella zoster virus | HFF | inhibition | 90%
Nc1ncnc2c1ncn2[C@@H]1C=C[C@@H](O)[C@H]1O | CC | neutral red | - | Measles virus | CV-1 | EC50 | 0.05 µg/mL
CCOC(=O)c1c(C)nc(OCCCNc2ccnc3cc(Cl)ccc23)nc1-c1ccccc1 | C-3-1 | - | - | Cryptococcus neoformans | - | MIC99 | 2 µg/mL
CCOC(=O)/C=C/[C@H](C[C@@H]1CCNC1=O)NC(=O)[C@@H](CC(=O)[C@@H](NC(=O)c1cc(C)on1)C(C)C)Cc1ccc(F)cc1 | Isolate 29 | cytopathic effect / visual reading | - | Rhinovirus | OHIO HELA-I | EC50 | 0.01 µg/mL
COc1ccc(-n2c(C(=O)NCc3ccc(OC(F)(F)F)cc3)c3n(c2=O)CCN(C(=O)c2ccc(Br)c(Cl)c2)C3)cc1 | - | PCR | - | Hepatitis B virus | HepG2.117 | EC50 | 0.1–0.5 µM
[N-]=[N+]=N[C@H]1C[C@@H](n2cnc3c(N)ncnc32)[C@H](O)[C@@H]1O | - | neutral red | - | Measles virus | CV-1 | EC50 | 0.5 µg/mL
COc1ccc([C@@H](C)NC(=O)c2c3n(c(=O)n2-c2ccc(-n4cccn4)cc2)CCN(C(=O)c2ccc(Br)c(Cl)c2)C3)cc1 | - | PCR | - | Hepatitis B virus | HepG2.117 | EC50 | 0.1–0.5 µM
CCc1cn([C@@H]2O[C@H](CO)[C@@H](O)[C@@H]2O)c(=O)[nH]c1=O | Asahikawa | plaque count | 10 µg/mL | Varicella zoster virus | HELF | inhibition | 0%
CC(C)(O)c1cn(-c2ccc([N+](=O)[O-])cc2)nn1 | URM 4817 | broth dilution | 2048 µg/mL | Candida albicans | - | inhibition | 0%
COc1ccc(-n2c(C(=O)N[C@@H]3CCc4cc(OC)ccc43)c3n(c2=O)CCN(C(=O)c2ccc(Br)c(Cl)c2)C3)cc1 | - | PCR | - | Hepatitis B virus | HepG2.117 | EC50 | 0.5–5 µM

For reference, 5 entries again:

smiles | strain or isolate | method | tested at | species | cell line | read-out | result
CC(C)(O)c1cn(-c2ccc(Cl)cc2)nn1 | URM 4818 | broth dilution | - | Candida parapsilosis | - | MIC | 128 µg/mL
CC(C)Cc1cnn2c3c(c(=O)n(-c4ccc(-c5n[nH]c(=O)n5C)cc4)c12)C[C@H](C)N(C(=O)c1ccc(Br)c(C(F)(F)F)c1)C3 | - | luminescence | - | Hepatitis B virus | HepG2.117 | EC50 | 0.05–0.5 µM
O=S(=O)([O-])c1ccc2c(O)cc(S(=O)(=O)[O-])cc2c1 | - | cytopathic effect | 50 µg/mL | Herpes simplex virus | Human amnion AV3 cells | inhibition | 0%
COc1ccc(CN2C[C@@H](O)Cn3c(c4n(c3=O)CCN(C(=O)c3ccc(Br)c(Cl)c3)C4)C2=O)c(F)c1 | - | PCR | - | Hepatitis B virus | HepG2.117 | EC50 | 0.1–0.5 µM
Nc1ncnc2c1ncn2[C@@H]1C[C@H](N)[C@@H](O)[C@H]1O | BIL | neutral red | - | Measles virus | CV-1 | EC50 | 100 µg/mL